Values quoted from earlier work in patent US20130058910A1, “DECONTAMINATION OF CHEMICAL AND BIOLOGICAL AGENTS” (published 2013).

What was measured:
[1] = test system: methicillin-resistant Staphylococcus aureus (MRSA); details: multiple MRSA isolates, within 30 minutes; cited from earlier work
E. coli = details: cited from earlier work
S. aureus = details: cited from earlier work

Compound	minimal biocidal concentration [1] [ppm]	minimal inhibitory concentration (MIC) for bactericidal activity (E. coli) [ppm]	minimal inhibitory concentration (MIC) for bactericidal activity (S. aureus) [ppm]
povidone iodine	512		
bromine		4.3	28
II		0.6	0.1
